# From PubChem BioAssay AID2314 (National Center for Advancing Translational Sciences (NCATS), 2010)
# The entries are a selection whose mix differs from that of the whole data set. Active and inactive are the calls of the source. Cut-off read from the data, not from the text of the source: active = max response mostly above about 13% (no sharp cut-off); inactive = mostly below about 14%.
# Assay: Cycloheximide Counterscreen for Small Molecule Inhibitors of Shiga Toxin; note: read at 38.3 µM for the half of the compounds with a filed dose; 0% is about no effect
# Conditions: cell reporter, cycloheximide protein synthesis inhibition counterscreen; hits give high values
row,Structure (SMILES),max response
1,O=P(Nc1nc2ccc(Cl)cc2s1)(c1ccccc1)c1ccccc1,inactive: -1.41%
2,CC(=O)Nc1ccc([As](=O)(O)O)cc1,inactive: -5.82%
3,O=C(O)c1ccccc1[As](=O)(O)O,inactive: 4.49%
4,CN(C)C(=O)Oc1noc2ccccc12,inactive: -1.76%
5,Cc1ccccc1OP(=O)(Nc1ccccn1)Oc1ccccc1C,inactive: -3.67%
6,CCC(=O)N1C2C3N(C(=O)CC)C1C1N(C(=O)CC)C(C(N1C(=O)CC)N3C(=O)CC)N2C(=O)CC,inactive: -0.471%
7,O=C(OC1CN2CCC1CC2)c1ccccc1 (centres undefined),inactive: -1.75%
8,CC(=O)NC(SC(=S)N(CC(C)C)CC(C)C)C(Cl)(Cl)Cl (centres undefined),inactive: -3.33%
9,Cc1ccc(OP(=O)(Nc2ccccn2)Oc2ccc(C)cc2)cc1,inactive: -1.27%
10,COC(=O)c1cc2c(s1)N=C(c1ccccc1)N(C)P2(=O)N1CCOCC1 (centres undefined),inactive: -2.55%
11,Cc1ccc(NP(=O)(Oc2cccc(C)c2)Oc2cccc(C)c2)nc1,inactive: -0.0421%
12,CCOC(=O)NC(Sc1ccccc1)C(Cl)(Cl)Cl (centres undefined),inactive: 15%
13,c1ccc(-c2nn[nH]n2)c(-c2nn[nH]n2)c1,inactive: -2.43%
14,O=C(NC1CCS(=O)(=O)C1)NP(=S)(Oc1ccccc1)Oc1ccccc1 (centres undefined),inactive: 1.16%
15,CC(=O)Nc1ccc(Oc2c([N+](=O)[O-])cc([N+](=O)[O-])cc2[N+](=O)[O-])cc1,inactive: 0.775%
16,CC(=O)Nc1ccc([As](=O)(O)O)c(O)c1,inactive: 11%
17,C[C@H]1OP(=O)(Oc2ccccc2)C[C@@H]2O[C@@H]21 (some centres undefined),inactive: -10.4%

row,Structure (SMILES),max response
1,C[C@@H]1C=CCP(=O)(Oc2ccccc2)O1 (some centres undefined),inactive: -7.91%
2,CC(=O)c1ccc(N2CC2c2ccncc2)cc1 (centres undefined),inactive: -2.95%
3,CC(C)(C)C(=O)NC(Sc1ccccc1)C(Cl)(Cl)Cl (centres undefined),inactive: 2.82%
4,CCOc1ccc(C2=NCC(CBr)S2)cc1 (centres undefined),inactive: 9.79%
5,O=P1(Nc2nc3ccc(Cl)cc3s2)COc2ccccc2O1 (centres undefined),inactive: 16.6%
6,CCC(C)(OOC(C)(C)C)OOC(C)(C)C,inactive: -3.69%
7,CC(C)C(=O)NC(Sc1ccccc1)C(Cl)(Cl)Cl (centres undefined),inactive: -4.68%
8,O=P(Nc1nccs1)(c1ccccc1)c1ccccc1,inactive: 0.83%
9,O=C(OC1CN2CCC1CC2)c1cccc(Cl)c1 (centres undefined),inactive: -3.31%
10,Nc1ccc([As](=O)(O)c2ccc([N+](=O)[O-])cc2)cc1,inactive: -2.97%
11,O=[As](O)(c1ccccc1)c1ccc(O)cc1,inactive: 1.16%
12,O=[N+]([O-])c1ccc(O)c(/C=N/Nc2ccc([N+](=O)[O-])cc2[N+](=O)[O-])c1,inactive: 1.07%
13,CC(=O)NC(SC(=S)N(C)C)C(Cl)(Cl)Cl (centres undefined),inactive: 11.5%
14,C[C@H]1OP(=O)(Oc2ccccc2)[C@H](O)[C@H](O)[C@H]1N=[N+]=[N-] (some centres undefined),inactive: -4.4%
15,O=P(Nc1nc2ccccc2s1)(c1ccccc1)c1ccccc1,active: 14.5%
16,O=P(Nc1ccccn1)(c1ccc(Br)cc1)c1ccc(Br)cc1,inactive: 0.149%
17,CN(C)C1(CNC(=O)c2ccc(Cl)c(S(N)(=O)=O)c2)CCCCC1,inactive: -2.33%
